Results as given in article PMC10716778 (The Journal of Biological Chemistry, 2023).

Molecular target: KPC-44 (Klebsiella pneumoniae, UniProt Q9F663, DUP260-274)
Assay type: biochemical
Conditions: substrate hydrolysis by KPC-44, 30 °C

SMILES: CC(C)(O/N=C(\C(=O)N[C@@H]1C(=O)N2C(C(=O)[O-])=C(C[n+]3ccccc3)CS[C@H]12)c1csc(N)n1)C(=O)O [Ceftazidime]
- kcat (50 mM sodium phosphate pH 7): >1.5 s⁻¹
- Km (pH 7): > 600 µM
